Measured values: ChEMBL document CHEMBL1828605, “Synthesis, antiviral activity, cytotoxicity and cellular pharmacology of l-3'-azido-2',3'-dideoxypurine nucleosides” (Eur J Med Chem, 2011)

Target: Human immunodeficiency virus type 1 reverse transcriptase (Human immunodeficiency virus 1) (UniProt Q72547)
Assay: Selectivity ratio of Kpol to Kd for dGTP to Kpol to Kd for compound at HIV1 reverse transcriptase

[N-]=[N+]=N[C@@H]1C[C@@H](n2cnc3c(O)nc(N)nc32)O[C@H]1COP(=O)(O)OP(=O)(O)OP(=O)(O)O
Selectivity ratio: 236
